Compound potency records, mixed from different reports. Data source: NIAID ChemDB in PubChem.

Common to all: growth or infection tests

ECn: concentration that inhibits the pathogen or its effect by n%. Rows are shuffled and stem from different studies. MIC50, MIC90 and the like: level of inhibition, or share of isolates inhibited. Blank or dashed fields: not listed here. Zones are inhibition diameters on agar.

SMILES	dose	strain	setting	read by	read-out	organism	result
CN[C@@H]1[C@H](O[C@H]2[C@H](O[C@H]3[C@H](O)[C@@H](O)[C@H](N=C(N)N)[C@@H](O)[C@@H]3N=C(N)N)O[C@@H](C)[C@]2(O)C=O)O[C@@H](CO)[C@H](O)[C@H]1O	-	N-481 (HIV-)	-	-	MIC	Mycobacterium avium intracellulare	4 µg/mL
Cc1nn(Cc2cn(CCCCCCCCCCn3cc(Cn4nc(C)n(/N=C/c5cccs5)c4=O)nn3)nn2)c(=O)n1/N=C/c1cccs1	20 mg/mL	-	-	agar diffusion	zone	Mycobacterium luteus	0.6 mm
CCc1cn(C2OC(CO)C(Br)C2F)c(=O)[nH]c1=O	-	-	-	resazurin	MIC80	Mycobacterium bovis BCG	100 µg/mL
CO[C@@]1(NC(=O)CCCC(N)C(=O)O)C(=O)N2C(C(=O)O)=C(COC(N)=O)CSC21	-	914-8	-	-	MIC	Mycobacterium fortuitum	100 µg/mL
Clc1ccc(Nc2nnc(-c3ccncc3)o2)cc1Cl	-	My 6509/96	7 d	broth dilution	MIC100	Mycobacterium kansasii	>125 µM
CO[C@@]1(NC(=O)Cc2ccccc2)C(=O)N2C(C(=O)O)=C(COC(C)=O)CSC21	-	1263	-	-	MIC	Mycobacterium fortuitum	50 µg/mL
COc1ccc(CCn2c(C)nn(Cc3cn(CCCCCCCCCCn4cc(Cn5nc(C)n(CCc6ccc(OC)cc6)c5=O)nn4)nn3)c2=O)cc1	20 mg/mL	-	-	agar diffusion	zone	Mycobacterium luteus	0.9 mm
COc1ccc(-c2c(-c3ccc(OCc4ccccc4)cc3O)n[nH]c2C(F)(F)F)cc1OC	-	-	-	visual reading	MIC	Mycobacterium marinum	>50 µg/mL
O=C(NNC(=O)c1ccncc1)Nc1ccc(Br)cc1Br	-	My 6509/96	21 d	broth dilution	MIC100	Mycobacterium kansasii	>125 µM
COc1ccc(/C=N/n2c(C)nn(Cc3cn(CCCCCn4cc(Cn5nc(C)n(/N=C/c6ccc(OC)cc6)c5=O)nn4)nn3)c2=O)cc1	20 mg/mL	-	-	agar diffusion	zone	Mycobacterium luteus	0.6 mm
CC1COc2c(N3CCN(C)CC3)c(F)cc3c(=O)c(C(=O)O)cn1c23	-	20 strains	-	-	MIC90	Mycoplasma hominis	0.5 µg/mL
C[C@@H]1CN(c2c(F)c(N)c3c(=O)c(C(=O)O)cn(C4CC4)c3c2F)C[C@H](C)N1	-	N-325 (HIV-)	-	-	MIC	Mycobacterium avium complex	0.5 µg/mL
CO[C@@]1(NC(=O)Cc2cccs2)C(=O)N2C(C(=O)O)=C(COC(N)=O)CS[C@@H]21	-	1261	-	-	MIC	Mycobacterium fortuitum	12.5 µg/mL
Cc1nn(Cc2cn(CCCCn3cc(Cn4nc(C)n(/N=C/c5cccs5)c4=O)nn3)nn2)c(=O)n1/N=C/c1cccs1	20 mg/mL	-	-	agar diffusion	zone	Mycobacterium luteus	0.6 mm
CCc1cn2c(nc1=O)O[C@@H]1[C@H](F)[C@H]2O[C@@H]1CO	-	-	-	resazurin	MIC25	Mycobacterium bovis BCG	100 µg/mL
C[C@@H]1CN(c2c(F)c(N)c3c(=O)c(C(=O)O)cn(C4CC4)c3c2F)C[C@H](C)N1	-	ATCC 25420	-	broth dilution / visual reading	MIC	Mycobacterium africanum	0.1 µg/mL
O=C(NNC(=O)c1ccncc1)Nc1ccc(C(F)(F)F)cc1	-	My 235/80	14 d	broth dilution	MIC100	Mycobacterium kansasii	>125 µM
CN(Cc1cn(CC2Cc3cn(-c4ccccc4)c4cccc(c34)C(=O)O2)nn1)S(C)(=O)=O	-	MC2 6230	-	visual reading	EC50	Mycobacterium spp.	>100 µg/mL
COc1ccc(-c2n[nH]c(C(F)(F)F)c2-c2ccc(OC)c(OC)c2)c(O)c1	-	-	-	visual reading	MIC	Mycobacterium marinum	>50 µg/mL
O=C1OC(Cn2cc(C3CC3)nn2)Cc2cn(-c3ccccc3)c3cccc1c23	-	MC2 6230	-	visual reading	EC50	Mycobacterium spp.	>100 µg/mL
NNC(=O)c1ccncc1	-	N-966 (HIV+)	-	-	MIC	Mycobacterium avium complex	1 µg/mL
COc1ccc(-c2c(-c3ccc(OCC(=O)NN)cc3O)n[nH]c2C(F)(F)F)cc1	-	-	-	visual reading	MIC	Mycobacterium marinum	>50 µg/mL
COC(=O)c1cc(O)c(O)c(O)c1	-	-	-	broth dilution / resazurin	MIC	Mycobacterium aurum	250 µg/mL
COc1ccc(/C=N/n2c(C)nn(Cc3cn(CCCCCCCCCCn4cc(Cn5nc(C)n(/N=C/c6ccc(OC)cc6)c5=O)nn4)nn3)c2=O)cc1	20 mg/mL	-	-	agar diffusion	zone	Mycobacterium luteus	0.6 mm
CC[C@H]1OC(=O)[C@H](C)[C@@H](O[C@H]2C[C@@](C)(OC)[C@@H](O)[C@H](C)O2)[C@H](C)[C@@H](O[C@@H]2O[C@H](C)C[C@H](N(C)C)[C@H]2O)[C@](C)(OC)C[C@@H](C)C(=O)[C@H](C)[C@@H](O)[C@]1(C)O	-	N-976 (HIV+)	-	-	MIC	Mycobacterium avium complex	2 µg/mL
COc1ccc(-c2n[nH]c(C(F)(F)F)c2-c2ccc(Br)cc2)c(O)c1	-	-	-	visual reading	MIC	Mycobacterium marinum	>50 µg/mL
COc1ccc(Nc2nnc(-c3ccncc3)o2)cc1	-	My 235/80	14 d	broth dilution	MIC100	Mycobacterium kansasii	>125 µM
O=C1OC(Cn2cc(-c3ccc(F)cc3F)nn2)Cc2cn(-c3ccccc3)c3cccc1c23	-	MC2 6230	-	visual reading	EC50	Mycobacterium spp.	>100 µg/mL
O=c1[nH]c(=S)c(CO)cn1C1OC(CO)C(O)C1O	-	-	-	resazurin	MIC75	Mycobacterium bovis BCG	5 µg/mL
CO[C@@]1(NC(=O)C(C(=O)O)c2ccc(O)cc2)C(=O)N2C(C(=O)O)=C(CSc3nnnn3C)CO[C@@H]21	-	1263	-	-	MIC	Mycobacterium fortuitum	50 µg/mL
CO[C@H]1/C=C/O[C@@]2(C)Oc3c(C)c(O)c4c(O)c(c(/C=N/N5CCN(C6CCCC6)CC5)c(O)c4c3C2=O)NC(=O)/C(C)=C\C=C\[C@H](C)[C@H](O)[C@@H](C)[C@@H](O)[C@@H](C)[C@H](OC(C)=O)[C@@H]1C	-	16-Feb	-	-	MIC	Mycobacterium avium intracellulare	0.25 µg/mL
CO[C@@]1(NC(=O)Cn2cnnn2)C(=O)N2C(C(=O)O)=C(CSc3nnc(C)s3)CSC21	-	1030-8	-	-	MIC	Mycobacterium fortuitum	100 µg/mL
CO[C@H]1/C=C/O[C@@]2(C)Oc3c(C)c(O)c4c(=O)c(c5oc6cc(N7CCN(CC(C)C)CC7)cc(=O)c6nc5c4c3=C2O)NC(=O)/C(C)=C\C=C\[C@H](C)[C@H](O)[C@@H](C)[C@@H](O)[C@@H](C)[C@H](OC(C)=O)[C@@H]1C	-	Isolate 8756	-	-	MBC	Mycobacterium ulcerans	0.025 µg/mL
CCCCCCCCc1ccc(NC(=O)NNC(=O)c2ccncc2)cc1	-	My 6509/96	7 d	broth dilution	MIC100	Mycobacterium kansasii	125 µM
Cc1nn(Cc2cn(CCCn3cc(Cn4nc(C)n(/N=C/c5cccs5)c4=O)nn3)nn2)c(=O)n1/N=C/c1cccs1	20 mg/mL	-	-	agar diffusion	zone	Mycobacterium luteus	0.6 mm
CCc1cc(C(N)=S)ccn1	-	mc2155	-	-	MIC	Mycobacterium smegmatis	10 µg/mL
CCCCCCc1ccc(NC(=O)NNC(=O)c2ccncc2)cc1	-	My 6509/96	7 d	broth dilution	MIC100	Mycobacterium kansasii	62.5 µM

Repeating the first 2 entries:

SMILES | dose | strain | setting | read by | read-out | organism | result
CN[C@@H]1[C@H](O[C@H]2[C@H](O[C@H]3[C@H](O)[C@@H](O)[C@H](N=C(N)N)[C@@H](O)[C@@H]3N=C(N)N)O[C@@H](C)[C@]2(O)C=O)O[C@@H](CO)[C@H](O)[C@H]1O | - | N-481 (HIV-) | - | - | MIC | Mycobacterium avium intracellulare | 4 µg/mL
Cc1nn(Cc2cn(CCCCCCCCCCn3cc(Cn4nc(C)n(/N=C/c5cccs5)c4=O)nn3)nn2)c(=O)n1/N=C/c1cccs1 | 20 mg/mL | - | - | agar diffusion | zone | Mycobacterium luteus | 0.6 mm